Reference: patent publication US20060275317A1, “Vaccine compositions for prevention of chronic and infectious diseases” (Biokit S.A., priority 2003, published 2006)

Tests used:
lysozyme = molecular target: T1, lysozyme (Homo sapiens, UniProt P61626); test: Lysozyme binding of GST-Tp17 mutants (blot, FIG. 36)
T1 sequence (P61626 19-148): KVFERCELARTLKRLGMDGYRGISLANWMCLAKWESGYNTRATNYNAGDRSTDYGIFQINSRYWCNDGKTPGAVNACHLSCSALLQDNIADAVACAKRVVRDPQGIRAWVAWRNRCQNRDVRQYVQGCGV

human lysozyme = test: Lysozyme inhibition assay of GST-Tp17 mutants; type: biochemical; details: 2 units human lysozyme; 45 min 37° C

B1: His104A (protein)
chain: MSPILGYWKIKGLVQPTRLLLEYLEEKYEEHLYERDEGDKWRDKKFELGLEFPNLPYYIDGDVKLTQSMAIIRYIADKHNMLGGCPKERAEISMLEGAVLDIRYGVSRIAYSKDFETLKVDFLSKLPEMLKMFEDRLCHKTYLNGDHVTHPDFMLYDALDVVLYMDPMCLDAFPKLVCFKKRIEAIPQIDKYLKSSKYIAWPLQGWQATFGGGDHPPKSDLVPRGSCVSCTTVCPHAGKAKAEKVECALKGGIFRGTLPAADCPGIDTTVTFNADGTAQKVELALEKKSAPSPLTYRGTWMVREDGIVELSLVSSEQSKAPAEKELYELIDSNSVRYMGAPGAGKPSKEMAPFYVLKKTKK
- ability to bind lysozyme (lysozyme): retained their ability to bind lysozyme
- lysozyme inhibition relative to wild-type Tp17 (human lysozyme): decrease in lysozyme inhibition
